PubChem BioAssay AID504761 | Drosophila RNAi Screening Center | 2011
The screen tested about 22,000 reagents; shown is an unselected part of those that have a named target and a result. Over the whole deposit, 116 (0.52%) are marked active. 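Calls depend on retest data that are not deposited; infection was ranked per plate without normalising between plates; the unit of the infection score is not given.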 Raw values are not corrected between plates. Entries without a mark were called inactive. The numbers tell different reagents against one gene apart. The record does not give: the amount of reagent, the time to read-out.

Screen: 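Fly genes whose silencing reduces dengue virus type 2 infection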 (primary screen)
Cells: D.Mel-2 cells from Drosophila
Reagents: long dsRNA against Drosophila genes
Challenge: infection with dengue virus type 2; dose and infection time not stated
Detection: 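Per well on two replicate plates, imaging gave the percent of cells positive for viral envelope protein, ranked by infection, and a nuclear count of cells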
Scale: infection score: higher = more virus-infected cells; cell count: higher = more cells in the well
Active means: 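Very low infection ranking in both replicate wells (chance probability at most 0.065), then a retest showing infection dropped 1.5-fold or more at p below 0.05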
Meaning of the calls: active = confirmed: knock-down lowers infection; inactive = not picked or not confirmed

target gene,reagent no.,"infection score, replicate 1","infection score, replicate 2","cell count, replicate 1","cell count, replicate 2"
bor,1,6.54,15.3,4254,3294
CG13836 (retired record),1,1.76,0.95,6660,7148
CG13836 (retired record),2,21.7,20.1,6119,6368
CG13516,1,3.71,6.52,6177,6624
CG5225,1,7.39,2.01,6566,6060
iPLA2-VIA,1,10.3,5.94,6410,6159
RagA-B,1,2.44,6.32,6520,7042
CR31427,1,5.8,1.07,6688,6445
CR31427,2,6.5,1.32,5920,5286
CG18746,1,10.5,2.9,5597,6231
CG1698,1,32.9,14.4,4501,5838
CG1698,2,2.35,3.63,5827,6276
pira,1,16.5,17.3,4581,6955
Ciao1,1,14.1,11.2,6060,6681
Tes,1,19.4,22.1,5344,5408
CG16976 (retired record),1,2.56,3.49,5986,5675
CG16976 (retired record),2,3.34,4.31,6018,6293
Tomosyn,1,2.72,6.77,6687,6661
Tomosyn,2,3.44,7.3,6735,6346
Tomosyn,3,0.56,8.17,6373,6376
Tomosyn,4,7.29,25.3,6062,6483
Tomosyn,5,1.68,4.03,6773,6333
CG11912,1,7.72,1.23,4596,6761
Scsalpha1,1,19.9,3.02,3908,728
Scsalpha1,2,9.57,6.6,6403,6106
aPKC,1,1.79,4.1,6096,5311
aPKC,2,18,22.2,5967,5572
aPKC,3,12.9,5.63,5537,6105
aPKC,4,6.48,12.2,6122,6090
CG13114,1,12.8,3.45,1707,666

A run of entries from the list above:
target gene,reagent no.,"infection score, replicate 1","infection score, replicate 2","cell count, replicate 1","cell count, replicate 2"
Ciao1,1,14.1,11.2,6060,6681
Tes,1,19.4,22.1,5344,5408
CG16976 (retired record),1,2.56,3.49,5986,5675
CG16976 (retired record),2,3.34,4.31,6018,6293
Tomosyn,1,2.72,6.77,6687,6661

Further entries:
target gene,reagent no.,"infection score, replicate 1","infection score, replicate 2","cell count, replicate 1","cell count, replicate 2"
CG17477,1,2.91,,7104,356
CG17477,2,1.21,0.69,6014,6416
CG15473,1,11.1,,2975,409
Mpp6,1,23.4,,4203,472
Mpp6,2,15.7,7.01,6383,5995
CG18302,1,5.17,13.2,5827,5934
CG18302,2,0.34,,290,356
CG31624,1,33.9,15.6,6056,5966
alphaTub85E,1,1.92,8.25,573,509
alphaTub85E,2,14.9,15.4,1900,2608
tweek,1,1.85,0.51,5744,5870
tweek,2,20,2.3,4485,6644
tweek,3,0.72,2.05,6377,6476
Cbs,1,2.55,1.49,6538,6563
CG4679,1,8.29,9.81,5257,4649
CG4679,2,16.8,4.1,4664,1145
CG14180 (retired record),1,3.76,4.98,5529,5663
CG14180 (retired record),2,2.77,4.11,6570,6528
Mcm5,1,5.67,33,5999,5835
Mcm5,2,,8.82,371,726
Or98a,1,3.1,4.36,484,1536
Or98a,2,17.3,1.24,6281,6132
Oatp58Db,1,24.8,30.9,5169,6485
Oatp58Db,2,12.6,4.77,5747,6273
MICU3,1,3.54,7.79,5783,4916
MICU3,2,4.17,5.31,6761,6530
RAF2,1,4.84,9.87,5948,6524
RAF2,2,1.33,1.38,5577,6079
RAF2,3,1.75,10.1,6297,5947
